Laboratory results published in article PMC11013252 (Molecules, 2024).
Positions of bridges follow the written chain, without caps; N, C: chain ends. Residues, ends and D or L forms follow the SMILES beside them.

Test system: S. aureus (ATCC 25923)
Assay type: cell-based, Staphylococcus aureus
Procedure: The temperature, serum, and pH stability of antimicrobial peptide Brevinin-1BW was investigated. S. aureus (ATCC 25923) was used to determine its stability. The antimicrobial peptide solution was prepared and placed at −20 °C, 4 °C, 37 °C, 60 °C, and 100 °C for 1 h. The MIC was measured with 96-well plate method to detect the effect of temperature. […] The pH stability was achieved by inoculating S. aureus into MH medium and culturing them with shaking to reach the logarithmic growth phase. This was then diluted to 10^6 CFU/mL. Brevinin-1BW was incubated in PBS at various pH values, pH = 2 or 12, for 1 h at 37 °C. The minimal inhibitory concentrations (MIC) of the peptides were then determined. All the above experiments were repeated more than three times.

## CC[C@H](C)[C@@H]1NC(=O)[C@H](CCCCN)NC(=O)[C@@H](NC(=O)[C@H](Cc2ccccc2)NC(=O)[C@@H](NC(=O)[C@@H](NC(=O)[C@@H]2CCCN2C(=O)[C@H](CC(C)C)NC(=O)[C@H](Cc2ccccc2)NC(=O)[C@H](CO)NC(=O)[C@H](C)NC(=O)[C@H](C)NC(=O)[C@H](CC(C)C)NC(=O)CNC(=O)[C@H](C)NC(=O)[C@H](CC(C)C)NC(=O)[C@H](CC(C)C)NC(=O)[C@@H]2CCCN2C(=O)[C@H](CC(C)C)NC(=O)[C@@H](N)Cc2ccccc2)[C@@H](C)O)[C@@H](C)CC)CSSC[C@@H](C(=O)O)NC(=O)[C@H](CCCCN)NC(=O)[C@H](CCCNC(=N)N)NC(=O)[C@H](CO)NC1=O [Brevinin-1BW] (H-FLPLLAGLAASFLPTIFCKISRKC-OH; disulfide 18-24)
10% serum, 37 °C, 1 h
  change of MIC after incubation with serum: twice as high
PBS pH 2 or 12, 1 h, 37 °C
  antibacterial activity after incubation with a different pH: still stable
Temperature range of −20 °C to 100 °C, 1 h
  change of MIC with temperature: did not change significantly
